According to PubChem BioAssay AID1251 (SRMLSC, 2008):
The list shows a part of the results, in another mix than the full data. Active and inactive are the calls of the source. No stated cut-off is given here; in the data, active means inhibition above about 30%; inactive means the rest, inconclusive results apart.

Assay: inhibitors of arbovirus infection in cells – cell-based, full library, 10K replicate subset, primary screen (AID 1251)
Settings: arbovirus infection cell-based antiviral screen; at 10 µM; active compounds read high

Row | SMILES | inhibition
1 | Clc1n[nH]nc1-c1nn[nH][15n]1 | inactive: -3.78%
2 | O=P1(Nc2ccccn2)COc2ccccc2OC1 | inactive: -5.13%
3 | O=[N+]([O-])c1cc([N+](=O)[O-])c(-n2nnc3ccccc32)c([N+](=O)[O-])c1 | inactive: 3.55%
4 | CCOP(=O)(Nc1cccc2ccccc12)OCC | inactive: -7.75%
5 | Cc1cc(C)cc(OP(C)(=O)Nc2ccccn2)c1 (stereo unspecified) | inactive: 1.39%
6 | CP(=O)(Nc1cccc(Br)c1)Oc1ccccc1 (stereo unspecified) | inactive: 1.02%
7 | Cc1ccc(NCCc2c([N+](=O)[O-])cc([N+](=O)[O-])cc2[N+](=O)[O-])cc1 | inactive: -4.25%
8 | Cc1ccc(C)c(NP(C)(=O)Oc2ccccc2)c1 (stereo unspecified) | inactive: 9.93%
9 | Cc1cccc(OCC(=O)OC2CN3CCC2CC3)c1 (stereo unspecified) | inactive: 5.43%
10 | Cc1cc(C)cc(OP(C)(=O)Nc2ccc(C)cc2C)c1 (stereo unspecified) | inactive: -6.44%
11 | CCOC(=O)c1ccc(NP(C)(=O)Oc2cc(C)cc(C)c2)cc1 (stereo unspecified) | inactive: -16.7%
12 | COc1cc(C(=O)NCC2(N3CCOCC3)CCCCC2)cc(Cl)c1OC(C)C | inactive: 9.93%
13 | CCOP1(=S)c2c(C)nn(CCC#N)c2N=C(c2ccc(F)cc2)N1C (stereo unspecified) | inactive: -8.47%
14 | O=[N+]([O-])c1ccc2c(c1)nnn2O | inactive: 4.81%
15 | CC1=NCCc2c1[nH]c1ccccc21.O=[N+]([O-])c1cc([N+](=O)[O-])c(O)c([N+](=O)[O-])c1 | inactive: 17.6%
16 | CCOP1(=S)c2c(C)nn(CCC#N)c2N=C(c2ccccc2F)N1C (stereo unspecified) | inactive: -8.59%
17 | O=P(Nc1nccs1)(Oc1ccccc1)Oc1ccccc1 | inactive: 5.54%
18 | O=P(Nc1nccs1)(c1ccccc1)c1nc2ccccc2s1 (stereo unspecified) | inactive: 0.43%
19 | O=c1c2cc([N+](=O)[O-])ccc2[nH]c2c([N+](=O)[O-])cc([N+](=O)[O-])cc12 | inactive: -38.4%
20 | CP(=O)(Nc1ccccc1)Oc1ccc(F)cc1 (stereo unspecified) | inactive: 15.2%
21 | CCN(CC)CCCOC(=O)C(O)(c1ccccc1)C1CCCCC1 (stereo unspecified) | inactive: -17.2%
22 | CCC(=O)N1C2C3N(C(=O)CC)C1C1N(C(=O)CC)C(C(N1C(=O)CC)N3C(=O)CC)N2C(=O)CC | inactive: 0.74%
23 | COC(=O)c1cc2c(s1)N=C(c1ccccc1)N(C)P2(=O)N1CCOCC1 (stereo unspecified) | inactive: 3%
24 | CC(=O)NC(SC(=S)N(CC(C)C)CC(C)C)C(Cl)(Cl)Cl (stereo unspecified) | inactive: -6.39%
25 | Cc1ccc(OP(=O)(Nc2ccccn2)Oc2ccc(C)cc2)cc1 | inactive: 11.7%
26 | COc1ccc(OP(C)(=O)Nc2ccc(SC(F)(F)F)cc2)cc1 (stereo unspecified) | inactive: -4.24%

Row | SMILES | inhibition
27 | CCOC(=O)c1ccc(NP(C)(=O)Oc2ccc(F)cc2)cc1 (stereo unspecified) | inactive: -0.26%
28 | c1ccc(-c2nn[nH]n2)c(-c2nn[nH]n2)c1 | inactive: 2.89%
29 | CCOC(=O)NC(Sc1ccccc1)C(Cl)(Cl)Cl (stereo unspecified) | inactive: -1.93%
30 | CCNC(=S)/N=C(\N)N[N+](=O)[O-] | inactive: 1.72%
31 | CC(=O)Nc1ccc(Oc2c([N+](=O)[O-])cc([N+](=O)[O-])cc2[N+](=O)[O-])cc1 | inactive: 6.32%
32 | O=C(OCCN1CCN(CCOCc2ccccc2)CC1)C(O)(c1ccccc1)c1ccccc1 | inactive: -3.55%
33 | CC(C)(C)C(=O)NC(Sc1ccccc1)C(Cl)(Cl)Cl (stereo unspecified) | inactive: 7.94%
34 | CC(C)c1ccc(OP(C)(=O)Nc2ccc(SC(F)(F)F)cc2)cc1 (stereo unspecified) | inactive: -9.16%
35 | CP(=O)(Nc1ccccc1F)Oc1ccccc1 (stereo unspecified) | inactive: 7.19%
36 | O=P1(Nc2nc3ccc(Cl)cc3s2)COc2ccccc2O1 (stereo unspecified) | inactive: 3.32%
37 | CCOc1ccc(C2=NCC(CBr)S2)cc1 (stereo unspecified) | inactive: -4.83%
38 | Cc1ccccc1NP(C)(=O)Nc1ccccc1C | inactive: 1.69%
39 | CP(=O)(Nc1ccc2c(c1)OCCO2)Oc1ccccc1 (stereo unspecified) | inactive: -0.82%
40 | c1nnnn1CCn1cnnn1 | inactive: -2.02%
41 | CCOP(C)(=S)SCC(=O)NC(C)(CC)C(=O)O (stereo unspecified) | inactive: -4.96%
42 | CC(C)C(=O)NC(Sc1ccccc1)C(Cl)(Cl)Cl (stereo unspecified) | inactive: -6.15%
43 | O=P(Nc1nccs1)(c1ccccc1)c1ccccc1 | inactive: -2.22%
44 | O=C(OC1CN2CCC1CC2)c1cccc(Cl)c1 (stereo unspecified) | inactive: 4.99%
45 | C(Cc1nn[nH]n1)Cc1nn[nH]n1 | inactive: -1.44%
46 | O=[N+]([O-])c1cc([N+](=O)[O-])c(NCC2CCS(=O)(=O)C2)c([N+](=O)[O-])c1 (stereo unspecified) | inactive: -12.8%
47 | CC(=O)NC(SC(=S)N(C)C)C(Cl)(Cl)Cl (stereo unspecified) | inactive: 4.86%
48 | COc1ccc(NP(C)(=O)Oc2ccccc2OC)cc1 (stereo unspecified) | inactive: 7.05%
49 | CN(C)CCOC(=O)C(O)(c1ccccc1)C1CCCCC1 (stereo unspecified) | inactive: 9.31%
50 | O=P(Nc1ccccn1)(c1ccc(Br)cc1)c1ccc(Br)cc1 | inactive: -4.68%
51 | COc1ccc(OP(C)(=O)Nc2cccc(Br)c2)cc1 (stereo unspecified) | inactive: 0.44%
